A mixed list of measured activities; the numbers were collected in NIAID ChemDB.

All rows: tests in culture; agent: Mycobacterium tuberculosis

MIC bound: limit read from a one-dose screen. ECn: concentration that inhibits the pathogen or its effect by n%. An empty or dashed field is not shown. a–b is a range or a potency band. Inhibition is in % at the dose shown (toxicity tests: loss of growth or viability). Lines come from different laboratories, so protocols vary.

smiles | changes | cell line | strain | conditions | endpoint | tested at | read by | value
NNC(=O)c1ccncc1 | - | - | 9S | - | MIC | - | - | 0.1 µg/mL
CCOC(=O)CNN | - | - | H37Rv | - | MIC | - | - | 50 µg/mL
COc1ccc(Nc2c3sc4cc(OC)ccc4nc-3c3ccccc3c2=O)cc1 | - | - | H37Rv | - | inhibition | 12.5 µg/mL | BACTEC | -23%
O=C(O)c1ccc(O)cc1 | - | - | H37Rv | - | MIC | - | - | >100 µg/mL
CCCCCCCCCCCNCCNC[C@@H]1CC[C@H]2C[C@@H]1C2(C)C | - | - | - | - | MIC | - | - | 25 µM
NC(=S)NC(N)=S | - | - | H37Rv | - | MIC | - | - | 25 µg/mL
Fc1ccc(CNCCNCc2ccco2)cc1 | - | - | - | - | MIC | - | - | 50 µM
CO/C(C)=C1/NC(=O)[C@H]([C@@H](C)O)NC(=O)c2csc(n2)-c2cc(O)c(-c3nc(C(=O)NCCCN4CCOCC4)cs3)nc2-c2csc(n2)[C@@H]2COC(=O)c3c4c5c(cccc5n3O)COC(=O)[C@@H](O[C@H]3C[C@](C)(O)[C@H](N(C)C)[C@H](C)O3)[C@@H](OC4)[C@H](NC(=O)c3csc1n3)c1nc(cs1)C(=O)N2 | - | - | Clinical isolate 16116 | - | MIC | - | broth dilution | ≤2.5 µM
CC(C)c1cccc(O)c1 | - | - | H37Rv | - | MIC | - | - | 3.12 µg/mL
c1ccc(CNCCN[C@H]2C[C@@H]3CC[C@H]2C3)cc1 | - | - | - | - | MIC | - | - | 50 µM
COC(=O)c1cc(=O)nc(NNC(C)=O)s1 | - | - | H37Rv | - | inhibition | 12.5 µg/mL | BACTEC | 24%
O=c1[nH]c2c(Cl)cccc2c(O)c1N=Nc1ccccc1Cl | - | - | H37Rv | - | MIC | - | resazurin | >6.25 µg/mL
CC[C@H]1OC(=O)[C@H](C)[C@@H](O[C@H]2C[C@@](C)(OC)[C@@H](O)[C@H](C)O2)[C@H](C)[C@@H](O[C@@H]2O[C@H](C)C[C@H](N(C)C)[C@H]2O)[C@](C)(OC)C[C@@H](C)C(=O)[C@H](C)[C@@H](O)[C@]1(C)O | - | - | S-24M (susceptible) | - | MIC | - | - | >8 µg/mL
c1cnc2c(c1)ccc1cccnc12 | - | - | H37Rv | - | MIC | - | BACTEC | 6.25 µg/mL
O=C(c1ccccc1)N1CCOCC1 | - | - | H37Rv | - | MIC | - | - | >100 µg/mL
NNC(=O)c1ccncc1 | - | - | PR118 | - | MIC | - | - | 0.16 µg/mL
CCOC(=O)Nc1cc2oc(-c3cc(OC)c(OC)c(OC)c3)nc2c(N(CCc2ccccc2)Cc2ccccc2)n1 | - | - | H37Rv | - | EC50 | - | - | >12.5 µg/mL
Cc1ccc2c(O)c(N=Nc3ccccc3Cl)c(=O)[nH]c2c1 | - | - | H37Rv | - | inhibition | 6.25 µg/mL | resazurin | 31%
CO/C(C)=C1/NC(=O)[C@H]([C@@H](C)O)NC(=O)c2csc(n2)-c2cc(O)c(-c3nc(C(=O)NNC4CCN(C)CC4)cs3)nc2-c2csc(n2)[C@@H]2COC(=O)c3c4c5c(cccc5n3O)COC(=O)[C@@H](O[C@H]3C[C@](C)(O)[C@H](N(C)C)[C@H](C)O3)[C@@H](OC4)[C@H](NC(=O)c3csc1n3)c1nc(cs1)C(=O)N2 | - | - | Clinical Isolate 913 | - | MIC | - | broth dilution | 10–100 µM
c1cc[n+](COCCOC[n+]2ccccc2)cc1 | - | - | H37Rv | - | MIC | - | - | >100 µg/mL
O=c1[nH]c2ccc(Cl)cc2c(O)c1N=Nc1ccc(Cl)c(Cl)c1 | - | - | H37Rv | - | MIC | - | resazurin | <6.25 µg/mL
COc1c(OC/C=C(\C)CCC=C(C)C)ccc2ccc(=O)oc12 | - | - | H37Rv | - | inhibition | 128 µg/mL | BACTEC | 98%
O=C(CNc1ccccc1)Nc1ccc2ccccc2c1[N+](=O)[O-] | - | - | H37Rv | - | MIC | - | - | >100 µg/mL
COc1ccc2c(c1OC)C(=O)O[C@@H]2[C@H]1c2cc3c(cc2CCN1C)OCO3 | - | - | H37Rv | - | MIC | - | BACTEC | ≥128 µg/mL
CC1CS(=O)(=O)CC(C)S1(=O)=O | - | - | H37Rv | - | MIC | - | - | >100 µg/mL
Cc1ncc([N+](=O)[O-])n1CCNS(=O)(=O)CCCn1ncnc1[N+](=O)[O-] | - | - | H37Rv | - | MIC bound | - | resazurin | >6.25 µg/mL
c1ccc(CCCNCCNC23CC4CC(CC(C4)C2)C3)cc1 | - | - | - | - | MIC | - | - | 37.5 µM
CC1Nc2c(ccc3ncccc23)C(=O)N1Nc1ccccc1 | - | - | H37Rv | - | MIC bound | - | BACTEC | >12.5 µg/mL
C/C=C/C(=O)OCC | - | - | H37Rv | - | MIC | - | - | >100 µg/mL
NC(=O)C(=O)CC(=O)c1ccccc1NC1=CC(=O)C(=O)c2ccccc21 | - | VERO | H37Rv | - | MIC | - | resazurin | ≤0.1 µg/mL
OC1(C#CC2(O)CCCC2)CCCC1 | - | - | H37Rv | - | MIC | - | - | >100 µg/mL
CC(=O)c1ccc(N=Nc2c(O)c3cc(Cl)ccc3[nH]c2=O)cc1 | - | - | H37Rv | - | inhibition | 6.25 µg/mL | resazurin | 29%
O=c1c2cc3c(=O)n4c(cc(-c5ccccc5)c5cc(Cl)ccc54)nc3cc2nc2cc(-c3ccccc3)c3cc(Cl)ccc3n12 | - | - | H37Rv | - | inhibition | 6.25 µg/mL | resazurin | 19%
CO[C@H]1/C=C/O[C@@]2(C)Oc3c(C)c(O)c4c(O)c(c(/C=N/N5CCN(C)CC5)c(O)c4c3C2=O)NC(=O)/C(C)=C\C=C\[C@H](C)[C@H](O)[C@@H](C)[C@@H](O)[C@@H](C)[C@H](OC(C)=O)[C@@H]1C | - | - | Clinical isolate 12556 | - | MIC | - | broth dilution | ≤0.1 µM
CCOC(=O)Nc1cc(NCC(C)CN(C)c2ccccc2)cc(NC(=O)OCC)n1 | - | - | H37Rv | - | EC50 | - | - | >12.5 µg/mL
CCOc1ccccc1CNCCNCCCCc1ccccc1 | - | - | - | - | MIC | - | - | 50 µM
O=C(c1ccccc1)c1ccc(Cl)cc1Cl | - | - | H37Rv | - | MIC | - | - | 25 µg/mL
NNC(=O)c1ccncc1 | Rifampicin- and isoniazid-resistant | - | Clinical isolate 10975 | - | MIC | - | broth dilution | >10 µM
Clc1ccc2c(c1)N(C1CCCN(Cc3ccccc3)C1)c1ccccc1S2.O=C(O)/C=C\C(=O)O | - | - | H37Rv | - | inhibition | 12.5 µg/mL | BACTEC | 88%
O=C(O)CCc1ccccc1O | - | - | H37Rv | - | MIC | - | - | >100 µg/mL
CCOC(=O)Nc1cc(N)c2ncc(-c3cc(OC)c(OC)c(OC)c3)nc2n1 | - | - | H37Rv | - | EC50 | - | - | >12.5 µg/mL
NNC(=O)c1ccncc1 | - | - | H37Rv | - | MIC | - | - | <0.2 µg/mL
Fc1ccc2oc(=S)n(-c3ccccc3)c(=S)c2c1 | - | - | My 331/88 | 14 d | MIC | - | - | 4 µM
CC1(C)[C@H]2CC[C@@H](CNCCNCC34CC5CC(CC(C5)C3)C4)[C@@H]1C2 | - | - | - | - | MIC | - | - | 3.13 µM
OCC(Br)CBr | - | - | H37Rv | - | MIC | - | - | >100 µg/mL
O=C(Nc1ccc(N=Nc2ccc(S(=O)(=O)O)cc2)cc1)c1ccc(N=Nc2ccc3c(S(=O)(=O)O)cccc3c2O)cc1 | - | - | H37Rv | - | MIC bound | - | BACTEC | >12.5 µg/mL
CCOC(=O)Nc1cc2[nH]c(-c3ccccc3)nc2c(N(C)Cc2ccccc2)n1 | - | - | H37Rv | - | EC50 | - | - | <12.5 µg/mL
CC(NCCN[C@@H](C)C1CCCCC1)C12CC3CC(CC(C3)C1)C2 | - | - | - | - | MIC | - | - | 50 µM
Nc1c(Br)cc(Br)cc1Br | - | - | H37Rv | - | MIC | - | - | >100 µg/mL
CC1(C)COC(c2ccccc2Br)=N1 | - | - | H37Rv | - | MIC bound | - | BACTEC | >12.5 µg/mL
O=C1NC(=O)C(Cc2ccccc2)N1 | - | - | H37Rv | - | MIC | - | - | >100 µg/mL
C1=C(CCNCCNCC2CCCO2)CCCC1 | - | - | - | - | MIC | - | - | 50 µM
CC(=O)c1c(O)c(C)c(O)c2c1OC1=CC(=O)C(C(C)=O)C(=O)C12C | - | - | H37Rv | - | MIC bound | - | BACTEC | >12.5 µg/mL
Cc1ccc2oc(=S)n(-c3cccc(Cl)c3)c(=S)c2c1 | - | - | My 331/88 | 21 d | MIC | - | - | 0.5 µM
c1cc(NCCN[C@H]2C[C@@H]3CC[C@H]2C3)c2cccnc2c1 | - | - | - | - | MIC | - | - | >50 µM
CSc1nc(NC2OC(COC(C)=O)C(OC(C)=O)C(OC(C)=O)C2OC(C)=O)c(-c2csc(N)n2)c(=O)n1C | - | - | H37Rv | - | inhibition | 12.5 µg/mL | BACTEC | 0%
CO/C(C)=C1/NC(=O)[C@H]([C@@H](C)O)NC(=O)c2csc(n2)-c2cc(O)c(-c3nc(C(=O)NCCc4c[nH]cn4)cs3)nc2-c2csc(n2)[C@@H]2COC(=O)c3c4c5c(cccc5n3O)COC(=O)[C@@H](O[C@H]3C[C@](C)(O)[C@H](N(C)C)[C@H](C)O3)[C@@H](OC4)[C@H](NC(=O)c3csc1n3)c1nc(cs1)C(=O)N2 | Multidrug-resistant | - | Clinical isolate 565 | - | MIC | - | broth dilution | 10–100 µM
NC(=O)c1ncc(-c2ccc(Cl)cc2)[nH]c1=O | - | - | H37Rv | - | MIC bound | - | BACTEC | >12.5 µg/mL
O=[N+]([O-])c1ccc(CO)cc1 | - | - | H37Rv | - | MIC | - | - | >100 µg/mL
COc1ccc(N=Nc2c(O)c3cc(Cl)ccc3[nH]c2=O)cc1 | - | - | H37Rv | - | MIC | - | resazurin | <6.25 µg/mL
CC1(C)CCCN1CC(O)CN1c2ccccc2Sc2ccc(Cl)cc21.Cl | - | - | H37Rv | - | inhibition | 12.5 µg/mL | BACTEC | 94%
CCOC(=O)Nc1cc(N)c([N+](=O)[O-])c(NC/C(C)=N/NC(N)=O)n1 | - | - | H37Rv | - | EC50 | - | - | >12.5 µg/mL
CC(NCCNCc1ccccc1)c1cccc2ccccc12 | - | - | - | - | MIC | - | - | 50 µM
CO[C@H]1/C=C/O[C@@]2(C)Oc3c(C)c(O)c4c(O)c(c(/C=N/N5CCN(C6CCCC6)CC5)c(O)c4c3C2=O)NC(=O)/C(C)=C\C=C\[C@H](C)[C@H](O)[C@@H](C)[C@@H](O)[C@@H](C)[C@H](OC(C)=O)[C@@H]1C | - | - | Isolate 920492 rifampicin-resistant | - | MIC | - | - | >32 µg/mL
NC(=O)c1cnccn1 | - | - | Isolate K10552 | - | MIC | - | - | >100 µg/mL
O=c1oc2ccc(Br)cc2c(=S)n1-c1ccc(Cl)c(Cl)c1 | - | - | My 331/88 | 21 d | MIC | - | - | 4 µM
Cc1cccc(N(CCO)CCO)c1 | - | - | H37Rv | - | MIC | - | - | >100 µg/mL
CN[C@@H]1[C@H](O[C@H]2[C@H](O[C@H]3[C@H](O)[C@@H](O)[C@H](N=C(N)N)[C@@H](O)[C@@H]3N=C(N)N)O[C@@H](C)[C@]2(O)C=O)O[C@@H](CO)[C@H](O)[C@H]1O | - | - | 101596 | - | MIC | - | - | ≥2 µg/mL
CCCCCCCCCCCCCCCCOc1ccc(OC)cc1C(=O)NNC(=S)SC | - | - | H37Rv | - | MIC | - | BACTEC | ≥128 µg/mL
CC(C)=CCC/C(C)=C/CNCCNCCNc1ccccc1 | - | - | - | - | MIC | - | - | 50 µM
C[C@H]1COc2c(N3CCN(C)CC3)c(F)cc3c(=O)c(C(=O)O)cn1c23 | - | - | 1S | - | MIC | - | - | 0.5 µg/mL
C[C@H](O)CNCCNCCc1c[nH]c2ccccc12 | - | - | - | - | MIC | - | - | 25 µM
Cc1ccc(Nc2cc(S(=O)(=O)[O-])c3c4c(cc(=O)n3C)-c3ccccc3C(=O)c24)cc1.[Na+] | - | - | H37Rv | - | MIC | - | - | >100 µg/mL
S=c1oc2ccc(Br)cc2c(=S)n1-c1ccc(Cl)c(Cl)c1 | - | - | My 331/88 | 14 d | MIC | - | - | 2 µM
Cc1cc(C)c(C(=O)C(=O)c2c(C)cc(C)c(Br)c2C)c(C)c1Br | - | - | H37Rv | - | MIC | - | - | >100 µg/mL
Cc1ccc(N=Nc2c(O)c3c(Cl)ccc(Cl)c3[nH]c2=O)cc1 | - | - | H37Rv | - | inhibition | 6.25 µg/mL | resazurin | 11%
Cc1ccc(NC(=O)C(Br)C(Br)c2ccccc2)cc1Cl | - | - | H37Rv | - | inhibition | 12.5 µg/mL | BACTEC | 78%
CO[C@H]1/C=C/O[C@@]2(C)Oc3c(C)c(O)c4c(=O)c(c5oc6cc(N7CCN(CC(C)C)CC7)cc(=O)c6nc5c4c3=C2O)NC(=O)/C(C)=C\C=C\[C@H](C)[C@H](O)[C@@H](C)[C@@H](O)[C@@H](C)[C@H](OC(C)=O)[C@@H]1C | - | - | TN807 | - | MIC | - | - | 2 µg/mL
CO[C@H]1/C=C/O[C@@]2(C)Oc3c(C)c(O)c4c(O)c(c5c(c4c3C2=O)NC2(CCN(CC(C)C)CC2)N=5)=NC(=O)/C(C)=C\C=C\[C@H](C)[C@H](O)[C@@H](C)[C@@H](O)[C@@H](C)[C@H](OC(C)=O)[C@@H]1C | - | - | MDR-3948 (MDR) | - | MIC | - | - | >1.6 µg/mL
NC(=S)N/N=C/c1ccc([N+](=O)[O-])o1 | - | - | H37Rv | - | MIC bound | - | resazurin | >6.25 µg/mL
COc1cc(NS(=O)(=O)c2ccc(C)cc2)ccc1N | - | - | H37Rv | - | MIC | - | - | 50 µg/mL
CNC(=S)NNc1ncnc2c1c(-c1ccc(Cl)cc1)cn2-c1ccc(C)cc1 | - | - | H37Rv | - | inhibition | 12.5 µg/mL | BACTEC | 84%
Cc1ccc(CNCCNCc2ccco2)cc1 | - | - | - | - | MIC | - | - | 25 µM